Anti-infective test results gathered from many reports (values: NIAID ChemDB through PubChem).

Shared fields: enzyme or target tests

Lines come from different laboratories, so protocols vary. Inhibition is in % at the dose shown (toxicity tests: loss of growth or viability). An empty or dashed field is not shown. Fold resistance: result on the changed form divided by that on wild type. ICn: concentration for n% inhibition. a–b is a range or a potency band.

structure,mutations,tested at,target,method,species,strain,measure,value
CN(C)CCCNC(=O)c1cc(NC(=O)c2cc(NC(=O)c3cc(NC(=O)c4cccc(C(=O)Nc5cc(C(=O)Nc6cc(C(=O)Nc7cc(C(=O)NCCCN(C)C)n(C)c7)n(C)c6)n(C)c5)n4)cn3C)cn2C)cn1C,,,Integrase,3′ processing,HIV-2,,IC50,>100 µM
Nc1ccn([C@@H]2CS[C@H](COP(=O)(O)OP(=O)(O)OP(=O)(O)O)O2)c(=O)n1,RT-L74V,,Reverse transcriptase,nucleotide incorporation / radiometric,HIV-1,,Ki,2.1 µM
C[C@@H]1O[C@@H](Oc2c(-c3cc(O)c(O)c(O)c3)oc3cc(O)cc(O)c3c2=O)[C@H](O)[C@H](O)[C@H]1O,,,RNase H,,HIV-1,,IC50,>500 µM
O=C(O)C(=O)/C=C(\O)c1cn(Cc2cc(F)ccc2F)c2ccc(F)cc12,Y143R,,Integrase,strand transfer / fluorescence,HIV-1,,fold resistance,11
O=C(CO)N[C@@H]([C@@H](O)[C@H](O)[C@H](O)CO)[C@@H](O)C(=O)C(=O)O,,40 µM,gp120,,HIV-1,MN,inhibition,34.1%
Cc1cn([C@H]2C=C[C@@H](COP(=O)(O)OP(=O)(O)OP(=O)(O)O)O2)c(=O)[nH]c1=O,RT-T215Y,,Reverse transcriptase,nucleotide incorporation / radiometric,HIV-1,,Ki,0.68 µM
CCC(Cc1ccccc1)c1cc(O)c(C(CC)c2ccccc2)c(=O)o1,,,Protease,,HIV-2,,Ki,0.032 µM
O=c1c2cccn2c2ccccc2n1CCNC(=S)Nc1ccc(Cl)cn1,RT-V106A,,Reverse transcriptase,nucleotide incorporation,HIV-1,,Ki,1.6 µM
Cc1cc(C(O)(c2cc(C)c(O)c(C(=O)O)c2)c2cc(C)c(O)c(C(=O)O)c2)cc(C(=O)O)c1O,,,Integrase,substrate cleavage,HIV,,IC50,50–100 µM
CC(C)CN(C[C@@H](O)[C@H](Cc1ccccc1)NC(=O)OCc1cccnc1)S(=O)(=O)c1ccc2nc(N)sc2c1,,,Protease,fluorescence,HIV,,IC50,0.004 µM
Nc1ncnc2c1ncn2[C@@H]1O[C@H](COP(=O)(O)O)[C@@H](O)[C@H]1O,,,RNase H,,HIV,,IC50,>10 µM
CC(C)CN(C[C@@H](O)[C@H](Cc1ccccc1)NC(=O)[C@@H](C)CS(C)(=O)=O)S(=O)(=O)c1ccc2nc(N)sc2c1,,,Protease,fluorescence,HIV,,IC50,0.002 µM
CCOC(=O)C(C(=O)OCC)c1cn(S(=O)(=O)c2ccc(C)cc2)c2ccc(NC(=O)c3cccc(C)c3O)cc12,Y143R,,Integrase,strand transfer / fluorescence,HIV-1,,fold resistance,1
C=CCOC(=O)C1=C(C)NC(N)=[N+]2[C@H](C[C@@H](O)CCCCCCOCc3ccccc3)CC[C@H]12,,,Nef,ELISA,HIV-1,NL4-3,IC50,<5 µM
CN(C(=O)COc1cccc2cnccc12)[C@@H](CC(F)(F)F)C(=O)N[C@@H](Cc1ccccc1)[C@H](O)C(=O)N1CSC[C@H]1C(=O)NC(C)(C)C,,,Protease,HPLC,HIV,,IC50,0.0051 µg/mL
CC(C)=CCN1Cc2cccc3[nH]c(=O)n(c23)CC1C,,,Reverse transcriptase,nucleotide incorporation,HIV-2,,IC50,>300 µM
c1ccc(C2SCc3nc4ccccc4n32)cc1,RT-Y181I Y188L,,Reverse transcriptase,,HIV,,fold resistance,>2
CC1(C)OC(=O)/C(=C/C(=O)c2cn(Cc3cc(F)ccc3F)c3ccc(F)cc23)O1,G140S,,Integrase,strand transfer / fluorescence,HIV-1,,fold resistance,1
CC(C)Nc1cccnc1N1CCN(C(=O)c2cc3ccccc3[nH]2)CC1,RT-E138K,,Reverse transcriptase,nucleotide incorporation,HIV,,fold resistance,1.03
C=C(NC(=O)C(=C)NC(=O)c1csc(C2=N[C@@H]3c4csc(n4)[C@H]4NC(=O)c5csc(n5)[C@H]([C@](C)(O)[C@@H](C)O)NC(=O)C5CSC(=N5)/C(=C/C)NC(=O)[C@H]([C@@H](C)O)NC(=O)c5csc(n5)[C@]3(CC2)NC(=O)C(C)NC(=O)C(=C)NC(=O)C(C)NC(=O)C(C(C)CC)NC2C=Cc3c([C@H](C)O)cc(nc3[C@H]2O)C(=O)O[C@@H]4C)n1)C(N)=O,,100 µM,Rev:RRE,gel,HIV-1,,inhibition,0%
CC(C)CN(C[C@@H](O)[C@H](Cc1ccccc1)NC(=O)OCc1cncs1)S(=O)(=O)c1ccc2ncsc2c1,,,Protease,fluorescence,HIV,,IC50,0.005 µM
O=C1c2cccnc2C(=O)N1CCNC(=S)Nc1ccc(Br)cn1,,,Reverse transcriptase,nucleotide incorporation,HIV-1,,Ki,0.019 µM
CC(C)CN(C[C@@H](O)[C@H](Cc1ccccc1)NC(=O)OCc1cncs1)S(=O)(=O)c1ccc2nc(N)sc2c1,,,Protease,fluorescence,HIV,,IC50,0.003 µM
NC[C@@H]1O[C@H](O[C@H]2[C@@H](O)[C@H](O[C@@H]3[C@@H](O)[C@H](N)C[C@H](N)[C@H]3O[C@H]3O[C@H](CO)[C@@H](O)C[C@H]3N)O[C@@H]2CO)[C@H](N)[C@@H](O)[C@@H]1O[C@H]1O[C@H](CO)[C@@H](O)[C@H](O)[C@@H]1O,,,Rev:RRE,gel,HIV-1,,IC50,<10 µM
CCOC(=O)C(C(=O)OCC)c1cn(S(=O)(=O)c2ccc(C)cc2)c2ccc(NC(=O)c3ccc(F)cc3Cl)cc12,G140S,,Integrase,strand transfer / fluorescence,HIV-1,,fold resistance,1
CC[C@H]1C(=O)Nc2ccc(F)cc2N1C(=O)OC(C)C,RT-P140A,,Reverse transcriptase,nucleotide incorporation / radiometric,HIV,,IC50,0.01 µM
COc1ccc(C(=O)Nc2nc3nc(-c4ccccc4)cc(C)n3n2)cc1OC,,,RNase H,RNase H / absorbance,HIV-1,,IC50,>100 µg/mL
Cc1cc(SC2=C(O)C[C@@](CCc3ccc(N)cc3)(C(C)C)OC2=O)c(C(C)(C)C)cc1CO,PR-V82F,,Protease,HPLC / absorbance,HIV-1,,fold resistance,2.5
CCC(C1=C(O)CC2(CCCCC2)OC1=O)c1ccccc1,,,Protease,fluorescence,HIV-2,,Ki,0.37 µM
N#CC(C#N)=NNc1ccc(S(=O)(=O)c2ccc(NN=C(C#N)C#N)cc2)cc1,,,Integrase,3′ processing,HIV-2,,IC50,38.3 µM
CCCCCCC[C@H](O)C[C@@H]1CC[C@H]2C(C(=O)O[C@@H](C)CCCCCCC[C@@H]3C[C@@H]4CC[C@@H]5C[C@H](C)NC(=[N+]54)N3)=C(C)NC(N)=[N+]12,,,Nef,ELISA,HIV-1,NL4-3,IC50,<5 µM
Cc1cn([C@@H]2O[C@H](CO[Si](C)(C)C(C)(C)C)C3(OS(=O)(=O)C=C3N)[C@H]2O[Si](C)(C)C(C)(C)C)c(=O)n(C)c1=O,RT-V106A,,Reverse transcriptase,nucleotide incorporation,HIV,,IC50,>750 µM
O=c1c2ccccc2[se]n1-c1ccccn1,,,Capsid,FRET / fluorescence,HIV-1,,IC50,0.1359 µM
O=c1cnc2ccccc2n1CCNC(=S)Nc1ccc(Br)cn1,RT-Y181I,,Reverse transcriptase,nucleotide incorporation,HIV-1,,Ki,2 µM
O=C(NCCc1ccc(O)c(O)c1)c1cc2cc(O)c(O)cc2[nH]1,,,RNase H + Reverse transcriptase,RNase H / fluorescence,HIV-1,,IC50,17.5 µM
N#C/C(=C\c1ccc(Br)nc1)c1nc2ccccc2[nH]1,,,Vif,,HIV-1,,IC50,1.01 µM
O=S(=O)(SC(Cl)(Cl)Cl)c1cccc(S(=O)(=O)c2cccc(S(=O)(=O)SC(Cl)(Cl)Cl)c2)c1,,,Integrase,strand transfer,HIV-2,,IC50,40 µM
Cc1ccc(C(=O)Nc2ccc3c(=O)n(O)c(=O)[nH]c3c2)cc1,,,RNase H,strand transfer / RNase H,HIV-1,,IC50,3.73 µM
O=C(O[C@@H]1Cc2c(O)cc(O)cc2O[C@@H]1c1ccc(O)c(O)c1)c1cc(O)c(O)c(O)c1,,0.4 µg/mL,gp120,ELISA,HIV-1,IIIB,inhibition,11%
O=C(O)c1cc(C(O)(c2ccc(O)c(C(=O)O)c2)c2ccc(O)c(C(=O)O)c2)ccc1O,,,Integrase,substrate cleavage,HIV,,IC50,10–50 µM
CN(C)CCCNC(=O)c1cc(NC(=O)c2cc(NC(=O)c3cc(NC(=O)c4ccc(C(=O)Nc5cc(C(=O)Nc6cc(C(=O)Nc7cc(C(=O)NCCCN(C)C)n(C)c7)n(C)c6)n(C)c5)nc4)cn3C)cn2C)cn1C,,,Integrase,3′ processing,HIV-2,,IC50,0.52 µM
NC[C@@H]1O[C@H](O[C@H]2[C@@H](O)[C@H](O[C@@H]3[C@@H](O)[C@H](N)C[C@H](N)[C@H]3O[C@H]3O[C@H](CN)[C@@H](O)[C@H](O)[C@H]3N)O[C@@H]2CO)[C@H](N)[C@@H](O)[C@@H]1O,,,Rev:RRE,gel,HIV-1,,IC50,<1 µM
Nc1nc2c(ncn2[C@H]2CC[C@@H](COP(=O)(O)OP(=O)(O)OP(=O)(O)O)O2)c(=O)[nH]1,RT-Y181I,,Reverse transcriptase,nucleotide incorporation,HIV,,fold resistance,0.75
CNC(=O)[C@@H](NC(=O)[C@H](OCc1ccccc1)[C@H](O)[C@@H](O)[C@@H](OCc1ccccc1)C(=O)N[C@H]1c2ccccc2C[C@H]1O)C(C)C,PR-G48V V82A I84V L90M,,Protease,,HIV,,Ki,0.069 µM
Nc1ccn([C@H]2CC[C@@H](COP(=O)(O)OP(=O)(O)OP(=O)(O)O)O2)c(=O)n1,RT-A62V V75I F77L F116Y Q151M,,Reverse transcriptase,nucleotide incorporation / radiometric,HIV-1,,Ki,1.4 µM
CN(C)CCCNC(=O)c1cc(NC(=O)c2cc(NC(=O)c3cc(NC(=O)c4cncc(C(=O)Nc5cc(C(=O)Nc6cc(C(=O)Nc7cc(C(=O)NCCCN(C)C)n(C)c7)n(C)c6)n(C)c5)c4)cn3C)cn2C)cn1C,,,Integrase,3′ processing,HIV-2,,IC50,>100 µM
Oc1cc(O)c2c(c1)O[C@H](c1ccc(O)c(O)c1)[C@H](O)C2,,0.5 µg/mL,gp120,ELISA,HIV-1,IIIB,inhibition,36%
CC(C)(C)NC(=O)[C@@H]1CSCN1C(=O)[C@@H](O)[C@H](Cc1ccccc1)NC(=O)[C@H](CCC(F)(F)F)NC(=O)COc1cccc2cnccc12,,,Protease,HPLC,HIV,,IC50,0.0027 µg/mL
CN(C)CCCNC(=O)c1cc(NC(=O)c2cc(NC(=O)c3cc(NC(=O)c4cnccc4C(=O)O)cn3C)cn2C)cn1C,,,Integrase,3′ processing,HIV-2,,IC50,>100 µM
C=CCOC(=O)C1=C(C)NC2=[N+]3[C@@H](CC[C@@H]13)C[C@@H](CCCCC[C@@H](C)OCc1ccccc1)N2,,5 µM,Nef,ELISA,HIV-1,NL4-3,inhibition,85.4%
Nc1ncnc2c1ncn2[C@H]1CC[C@@H](COP(=O)(O)OP(=O)(O)OP(=O)(O)O)O1,RT-K65R,,Reverse transcriptase,nucleotide incorporation / radiometric,HIV-1,,Ki,2.4 µM
CN(C)[C@@H]1C(=O)C(C(N)=O)=C(O)[C@@]2(O)C(=O)C3=C(O)c4c(O)cccc4[C@@](C)(O)[C@H]3C[C@@H]12,,100 µM,Rev:RRE,gel,HIV-1,,inhibition,0%
Cc1c(O)cccc1C(=O)N[C@@H](Cc1ccccc1)[C@H](O)CN(CC(C)C)S(=O)(=O)c1ccc2ncsc2c1,,,Protease,fluorescence,HIV,,IC50,0.002 µM
NC[C@H]1O[C@H](O[C@H]2[C@H](O)[C@@H](O[C@H]3O[C@H](CO)[C@@H](O)[C@H](N)[C@H]3O)[C@H](N)C[C@@H]2N)[C@H](N)[C@@H](O)[C@@H]1O,,100 µM,Rev:RRE,gel,HIV-1,,inhibition,100%
Cc1cc(SC2=C(O)C[C@@](CCc3ccc(O)cc3)(C(C)C)OC2=O)c(C(C)(C)C)cc1CO,PR-V82A,,Protease,HPLC / absorbance,HIV-1,,fold resistance,4.3
O=C(O)C(=O)/C=C(\O)c1cn(Cc2cc(F)ccc2F)c2ccc(Br)cc12,G140S,,Integrase,strand transfer / fluorescence,HIV-1,,fold resistance,0.8
NC[C@H]1O[C@H](O[C@H]2[C@H](O)[C@@H](O[C@H]3O[C@H](CO)[C@@H](O)[C@H](N)[C@H]3O)[C@H](N)C[C@@H]2N)[C@H](N)C[C@@H]1O,,10 µM,Rev:RRE,gel,HIV-1,,inhibition,100%
C=CCOC(=O)C1=C(CCCCC[C@@H](C)O[Si](C)(C)C(C)(C)C)NC2=[N+]3[C@H](CC[C@@H]13)C[C@H](C)N2,,,Nef,ELISA,HIV-1,NL4-3,IC50,<5 µM
CCOC(=O)C(C(=O)OCC)c1cn(S(=O)(=O)c2ccc(C)cc2)c2ccc(NC(=O)c3cccc([N+](=O)[O-])c3)cc12,G140S,,Integrase,strand transfer / fluorescence,HIV-1,,fold resistance,0.9
CC1CNCCN1S(=O)(=O)c1cccc2cnccc12,,,Tat:TAR/LTR,,HIV-1,LAV,Ki,6 µM
Cc1ccc2c(c1)n(CCNC(=S)Nc1ccc(Br)cn1)c(=O)c1cccn12,RT-Y188L,,Reverse transcriptase,nucleotide incorporation,HIV-1,,Ki,0.5 µM
CCCCCCCCC[C@@H]1C[C@@H]2CCC3=C(C(=O)O[C@H](C)CCCCC[C@@H]4C[C@@H]5CC[C@@H]6C[C@H](C)NC(=[N+]65)N4)[C@@H](C)NC(=[N+]32)N1,,5 µM,Nef,ELISA,HIV-1,NL4-3,inhibition,82.5%
COc1ccc(/C=C/NC(=O)Nc2ccc(Cl)cn2)cc1OC,RT-Y188L,,Reverse transcriptase,nucleotide incorporation,HIV-1,,Ki,>20 µM
CC(C)CN(C[C@@H](O)[C@H](Cc1ccccc1)NC(=O)OCc1ccccc1)S(=O)(=O)c1ccccc1,,,Protease,fluorescence,HIV,,IC50,0.006 µM
CCOC(=O)C(C(=O)OCC)c1cn(S(=O)(=O)c2ccc(C)cc2)c2ccc(NC(=O)c3ccc(OC)cc3)cc12,G140S,,Integrase,strand transfer / fluorescence,HIV-1,,fold resistance,1